Target: hemagglutinin (HA) of influenza A virus A/California/07/2009 (H1N1pdm) (influenza A virus A/California/07/2009 (H1N1pdm))
Assay: cell-based or functional assay

With “mouse MAb C179 capable of exhibiting a broad reactivity with HAs belonging to group 1” the Neutralization activity (VN50 value µg/ml) was 3.01 µg/mL.
